The values below come from PMC12443476 (2025).

This assay addresses biotinylated Tom70 ([…]) with N-terminal AVI tag (human, biotin (AVI tag, by co-expressed BirA)). In words: SPR. For orientation: SPR reads the build-up and loss of mass on a sensor chip optically.

B1: WT refolded Orf9b (apo-Orf9b homodimer) (natural protein)
chain: not shown
Regarding B1, the koff (usually the first-order rate constant of dissociation) came out at 0.0039 s⁻¹.
